Results of unrelated studies side by side (data: NIAID ChemDB).

Shared fields: whole-cell or culture tests; agent: Candida albicans

ECn is the concentration giving n% inhibition of infection, replication or growth.

structure	strain or isolate	read by	endpoint	result
NC(=S)c1ccnc(SCc2ccccc2)c1	44859		MIC	120 µM
CN=C(N)SCCN(CCSC(N)=NC)CCN(CCSC(N)=NC)CCSC(N)=NC	ATCC 18804		MIC	>1000 µg/mL
CCOC(=O)Cc1csc(NC(=O)CSc2nnc(C(C)Oc3ccc(C)cc3)n2C2CCCCC2)n1	NRRL Y-27077		MIC	>16 µg/mL
COc1cc(CCCOC(=O)c2ccccc2)ccc1O			EC50	7.05 µg/mL
CCS(=O)c1nnc(-c2cc([N+](=O)[O-])ccc2-c2ccco2)s1	ATCC 10231		MIC	25 µg/mL
Cc1ncc([N+](=O)[O-])n1CCN1C(=O)/C(=C/c2ccccc2)N=C1c1ccccc1			MIC	250 µg/mL
CSc1nnc(-c2cccc([N+](=O)[O-])c2)s1	ATCC 10231		MIC	>100 µg/mL
CCOC(=O)c1csc(NC(=O)CSc2nnc(C(C)Oc3ccc(C)cc3)n2-c2ccccc2)n1	NRRL Y-27077		MIC	8 µg/mL
NC(=S)c1ccnc(SCc2ccccc2Cl)c1	44859		MIC	>1000 µM
Cc1ccc(N=c2scc(-c3ccccc3)n2CCn2c([N+](=O)[O-])cnc2C)cc1			MIC	250 µg/mL
NC(=S)c1ccnc(SCc2c(F)cccc2[N+](=O)[O-])c1	44859		MIC	250 µM
COc1cc2c(cc1OC)C(CC#N)=NC(C)C2.Cl	264/624		MIC	500 µg/mL
CCOC(=O)Cc1csc(NC(=O)CCl)n1	ATCC 10231		MIC	156 µg/mL
CCS(=O)(=O)c1nnc(-c2ccc([N+](=O)[O-])cc2)s1	ATCC 10231		MIC	50 µg/mL
Cc1ncc([N+](=O)[O-])n1CCN1C(=O)/C(=C/c2c(Cl)cccc2Cl)N=C1c1ccccc1			MIC	250 µg/mL
O=[N+]([O-])c1ccc(/C=N/NC(=S)N2CCCC2)o1			MIC	100 µg/mL
O=S1c2ccccc2SN1C1CC1	CCH442		MIC	50 µg/mL
CN(C)C(=S)N/N=C/c1ccc([N+](=O)[O-])o1			MIC	100 µg/mL
Cl.N#CCC1=NC2(CCCCC2)Cc2ccccc21	264/624		MIC	500 µg/mL
CN1CCN(C(=S)N/N=C/c2ccc([N+](=O)[O-])o2)CC1			MIC	80 µg/mL
Cc1csc(NC(=O)CSc2nnc(C(C)Oc3ccccc3)n2-c2ccccc2)n1	Clinical isolates		MIC	>16 µg/mL
NC(=O)N/N=C/c1ccc([N+](=O)[O-])o1			MIC	100 µg/mL
CCOC(=O)c1csc(NC(=O)CSc2nnc(C(C)Oc3ccccc3)n2-c2ccccc2)n1	NRRL Y-27077		MIC	>16 µg/mL
COc1cc2nccc3c4ccccc4n(c1=O)c23			MIC	190.3 µM
CCSc1nnc(-c2cccc([N+](=O)[O-])c2)s1	ATCC 10231		MIC	>100 µg/mL
CC(Oc1ccccc1)c1n[nH]c(=S)n1C1CCCCC1	Clinical isolates		MIC	>16 µg/mL
NC(=NC1CCCC1)c1ccc(-c2ccc(-c3ccc(C(N)=NC4CCCC4)cc3)o2)cc1	Isolate 3028 fluconazole-resistant		MIC	12.5 µg/mL
NC(=S)c1ccnc(SCc2ccc([N+](=O)[O-])cc2)c1	44859		MIC	>500 µM
C[C@@H]1CCC2(OC1)OC1CC3C4C[C@H](OC5O[C@@H](CO)[C@H](O)[C@@H](O)[C@@H]5O)[C@H]5C[C@@H](OC6O[C@H](CO)[C@@H](O)[C@H](O)[C@H]6O)CC[C@]5(C)C4CC[C@]3(C)C1[C@@H]2C	ATCC 90028		MIC	20 µg/mL
Cc1ncc([N+](=O)[O-])n1CCn1c(-c2ccc(CCl)cc2)csc1=Nc1ccccc1			MIC	250 µg/mL
CCSc1nnc(Cc2cc([N+](=O)[O-])ccc2-c2ncc[nH]2)s1	ATCC 10231		MIC	>100 µg/mL
COC1OC(C)(c2ccc(-c3ccccc3)cc2)C(=O)CC1N(C)C			MIC	>32 µg/mL
Cc1ncc([N+](=O)[O-])n1CCNC(=S)Nc1ccc(CO)cc1			MIC	250 µg/mL
C[C@H]1[C@H](O)[C@@H](C)/C=C/C=C/C=C/C=C/C=C/C=C/C=C/[C@H](O[C@@H]2O[C@H](C)[C@@H](O)[C@H](N)[C@@H]2O)C[C@@H]2O[C@](O)(C[C@@H](O)C[C@@H](O)CC[C@H](O)[C@@H](O)C[C@@H](O)CC(=O)O[C@H]1C)C[C@H](O)[C@H]2C(=O)O	ATCC 18804		MIC	0.25 µg/mL
COC1OC(C)(c2ccc(-c3ccccc3)cc2)C(=O)CC1N1CCOCC1			MIC	>32 µg/mL
CC(=O)C1=C2C=C3C=C(/C=C/C(C)=C/[C@@H](C)CCO)OC=C3[C@@H](O)[C@]2(C)OC1=O			EC50	24.3 µg/mL
NC(=S)c1ccnc(SCc2cccc(F)c2)c1	44859		MIC	62.5 µM
Nc1ncccc1-c1cc(Cc2ccc(COc3ccccn3)cc2)no1		broth dilution	MIC90	<0.03 µg/mL
CSc1nnc(-c2ccccc2[N+](=O)[O-])s1	ATCC 10231		MIC	>100 µg/mL

The last 5 rows once more:

structure | strain or isolate | read by | endpoint | result
COC1OC(C)(c2ccc(-c3ccccc3)cc2)C(=O)CC1N1CCOCC1 |  |  | MIC | >32 µg/mL
CC(=O)C1=C2C=C3C=C(/C=C/C(C)=C/[C@@H](C)CCO)OC=C3[C@@H](O)[C@]2(C)OC1=O |  |  | EC50 | 24.3 µg/mL
NC(=S)c1ccnc(SCc2cccc(F)c2)c1 | 44859 |  | MIC | 62.5 µM
Nc1ncccc1-c1cc(Cc2ccc(COc3ccccn3)cc2)no1 |  | broth dilution | MIC90 | <0.03 µg/mL
CSc1nnc(-c2ccccc2[N+](=O)[O-])s1 | ATCC 10231 |  | MIC | >100 µg/mL

MIC50, MIC90 and the like: level of inhibition, or share of isolates inhibited. Blank or dashed fields: not listed here. Conditions beyond the fields shown may differ between rows.